This note sets out measurements from ChEMBL document CHEMBL1759992, “Antidotes to anthrax lethal factor intoxication. Part 2: structural modifications leading to improved in vivo efficacy” (Bioorg Med Chem Lett, 2011).

The test system of one test is Rattus norvegicus. As to the kind of experiment: Inhibition of lethal factor-induced toxicity in Fischer 344 rat assessed as increase in median survival time at 5 mg/kg, iv followed by administration of 10 ug lethal toxin after 20 to 30 mins of compound dosing relative to control.
For the compound `Cc1cc(O[C@H](CCCCCNCc2ccc(F)cc2)C(=O)NO)cc(C)c1F`, the fold change (FC) is 1.4.

Take `Cc1cc(O[C@H](CCCCNCc2ccc(Cl)cc2)C(=O)NO)cc(C)c1F`: the fold change (FC) stood at 1.3.

As to `CO[C@H](C[C@H](CCCCCNCc1ccc(F)cc1)C(=O)NO)c1ccc(F)cc1`, the fold change (FC) is 1.4.

`Cc1cc(O[C@H](CCCCCNCCc2ccc(F)cc2)C(=O)NO)cc(C)c1F`: the fold change (FC) was found to be 1.1.

In the case of `Cc1cc(CNCCCC[C@@H](Nc2ccc(F)c(C)c2)C(=O)NO)ccc1F`, the fold change (FC) was 5.8.

Consider `Cc1cc(CNCCCC[C@@H](Oc2ccc(F)c(C)c2)C(=O)NO)ccc1F`, for which the fold change (FC) was determined as 1.3.

As for `O=C(NO)[C@@H](CCCCNCc1ccc(F)cc1)Nc1ccc(F)c(Cl)c1`, the fold change (FC) was 1.4.

For the compound `CO[C@H](C[C@H](CCCCNCc1ccc(F)c(C)c1)C(=O)NO)c1ccc(F)cc1`, the fold change (FC) was 5.

Consider `Cc1cc(CNCCCC[C@@H](Cc2cc(C)c(F)c(C)c2)C(=O)NO)ccc1F`, for which the fold change (FC) was found to be 7.8.

As for `Cc1cc(N[C@H](CCCCNCc2ccc(F)cc2)C(=O)NO)cc(C)c1F`, the fold change (FC) was determined as 17.

Turning to `Cc1cc(O[C@H](CCCCNCc2ccc(F)cc2)C(=O)NO)cc(C)c1F`, the fold change (FC) was 2.9.

Consider `Cc1cc(N[C@H](CCCCNCCCc2ccc(F)cc2)C(=O)NO)cc(C)c1F`, for which the fold change (FC) came to 2.

In the case of `Cc1cc(C[C@H](CCCCNCc2ccc(F)cc2)C(=O)NO)cc(C)c1F`, the fold change (FC) was determined as 13.6.

For the compound `CO[C@H](C[C@H](CCCCCNCCc1ccc(F)cc1)C(=O)NO)c1ccc(F)cc1`, the fold change (FC) amounted to 1.3.

The next test concerns Rattus norvegicus. The test is described as follows: Inhibition of lethal factor-induced toxicity in Fischer 344 rat assessed as increase in median survival time at […], iv followed by administration of 10 ug lethal toxin after 20 to 30 mins of compound dosing relative to control.
For `CO[C@H](C[C@H](CCCCNCc1ccc(F)cc1)C(=O)NO)c1ccc(F)cc1`, the FC turned out to be 5.

As to `Cc1cc(CNCCCC[C@@H](Nc2cc(C)c(F)c(C)c2)C(=O)NO)ccc1F`, the FC is 4.2.
